Results of unrelated studies side by side (data: NIAID ChemDB).

Common to all: whole-cell or culture tests; organism: HIV-1; cells: MT-4; endpoint: EC50

Blank or dashed fields: not listed here. Conditions beyond the fields shown may differ between rows. ECn: concentration that inhibits the pathogen or its effect by n%.

compound,strain,mutations,read by,value
C1CCNCCCNCCCNCCCN(CCCN2CCCNCCCNCCC2)CCCNCCCNCCCNC1,IIIB,,cytopathic effect,7.7 µM
O=c1[nH]cnc2c1ncn2[C@H]1CC[C@@H](CO)O1,IIIB,RT-D67N K70R K172R,cytopathic effect / MTT,10.8 µM
Nc1ncnc2c1ncn2CCOCP(=O)(O)O,RF,,cytopathic effect / MTT,20 µM
Cc1c(C(C)(C)C)s/c(=N\S(=O)(=O)c2cc(Cl)ccc2C#N)n1C,IIIB,,cytopathic effect / MTT,0.0083 µM
OC[C@H]1O[C@@H](Oc2ccc(O)c3cccc(O)c23)[C@H](O)[C@@H](O)[C@@H]1O,IIIB,,cytopathic effect,>100 µg/mL
Cc1cn([C@H]2C[C@H](N=[N+]=[N-])[C@@H](CO)O2)c(=O)[nH]c1=O,NL-XM WT,,p24,<0.02 µM
NC1=Nc2c(ncn2CCC/C=C/P(=O)(O)O)C(=O)C1,RF,,cytopathic effect / MTT,56 µM
COc1ccc(S(=O)(=O)/N=c2\sc(C(C)(C)C)c(C)n2C)cc1,IIIB,,cytopathic effect / MTT,>25 µM
COc1ccc(CCN=C2C=C(Cc3ccc4ccccc4c3)NS(=O)(=O)N2)cc1,IIIB,,MTT,>159 µM
Cc1c(C(C)(C)C)s/c(=N\S(=O)(=O)c2cc(Cl)ccc2O)n1C,IIIB,,cytopathic effect / MTT,0.026 µM
C1CCNCCCNCCCN(CCCN2CCCNCCCNCCC2)CCCNCCCNC1,IIIB,,cytopathic effect,27 µM
Cc1ccnc2c1NC(=O)c1cccnc1N2C1CC1,IIIB,,MTT,0.24 µM
Cc1c(C(C)(C)C)s/c(=N\S(=O)(=O)c2ccccc2)n1C,IIIB,,cytopathic effect / MTT,>25 µM
O=S1(=O)NC(Cc2ccc3ccccc3c2)=CC(=NC2CC2)N1,IIIB,,MTT,>218 µM
Nc1ccn([C@H]2CC[C@@H](CO)O2)c(=O)n1,IIIB,,p24,0.45 µM
CCc1c(Sc2cc(C)cc(C)c2)n(COCCOP(=O)(O)OC[C@H]2O[C@@H](n3cc(C)c(=O)[nH]c3=O)C[C@@H]2N=[N+]=[N-])c(=O)[nH]c1=O,IIIB MKC-442-resistant (RT Y181C),RT-Y181C,cytopathic effect / MTT,0.002 µM
COc1cc(C(=O)OC[C@H]2O[C@@H](Oc3ccc(O)c4cccc(O)c34)[C@H](O)[C@@H](O)[C@@H]2O)cc(OC)c1O,IIIB,,cytopathic effect,>100 µg/mL
O=c1[nH]cnc2c1ncn2[C@H]1CC[C@@H](CO)O1,XM-AZT-resistant,RT-M41L D67N K70R T215Y K219Q,p24,<11 µM
O=S1(=O)N=C(Nc2cccc(Cl)c2)C=C(Cc2ccccc2)N1,IIIB,,MTT,>189 µM
Cc1cn([C@H]2C[C@H](N=[N+]=[N-])[C@@H](CO)O2)c(=O)[nH]c1=O,RF,,cytopathic effect / MTT,0.04 µM
CC(C)CN(C[C@@H](O)[C@H](Cc1ccccc1)NC(=O)O[C@H]1CCOC1)S(=O)(=O)c1ccc(N)cc1,NL4-3,L23I E34Q K43I M46I I50L G51A L63P A71V V82A T91A,p24 / luminescence,0.39 µM
CC(C)=CCN1c2cc(Cl)cc3[nH]c(=S)n(c23)C[C@@H]1C,,RT-M41L T215Y,,<0.1 µM
O=S1(=O)N=C(Nc2ccccc2Cl)C=C(Cc2ccccc2)N1,IIIB,,MTT,>182 µM
C1CCNCCCNCCCNCCCN(CCC[N+]2(CCCN3CCCNCCCNCCCNCCCCNCCCNCCCNCCC3)CCCNCCCNCCCNCCCCNCCCNCCCNCCC2)CCCNCCCNCCCNC1,IIIB,,cytopathic effect,0.67 µM
c1cc(CN2CCCNCCNCCCNCC2)ccc1CN1CCCNCCNCCCNCC1,NL4-3 D-CA-resistant,,,0.02 µM
O=S1(=O)N=C(Nc2ccc(Cl)cc2)C=C(Cc2ccccc2)N1,IIIB,,MTT,>179 µM
O=C(OC[C@H]1O[C@@H](Oc2ccc(O)c3cccc(O)c23)[C@H](O)[C@@H](O)[C@@H]1O)c1cc(O)c(O)c(O)c1,IIIB,,cytopathic effect,>100 µg/mL
CCC[C@@]1(CCc2ccccc2)CC(O)=C([C@H](CC)c2cccc(NS(=O)(=O)c3ccc(C(F)(F)F)cn3)c2)C(=O)O1,NL4-3,L23I E34Q K43I M46I I50L G51A L63P A71V V82A T91A,p24 / luminescence,>1 µM
Cc1c(C(C)(C)C)s/c(=N\S(=O)(=O)c2cccc(O)c2)n1C,IIIB,,cytopathic effect / MTT,>25 µM
NC(=O)c1ncn([C@H]2O[C@@H](COP(=O)(O)OC[C@@H]3C=C[C@H](n4cnc5c(=O)[nH]cnc54)O3)[C@H](O)[C@@H]2O)n1,IIIB,RT-D67N K70R K172R,cytopathic effect / MTT,>17.5 µM
O=S1(=O)N=C(Nc2ccccc2)C=C(Cc2cccc3ccccc23)N1,IIIB,,MTT,>158 µM
C1CNCCCN(CCCN2CCCNCCCN(CCCN3CCCNCCCNCCC3)CCCNCCC2)CCCNC1,IIIB,,cytopathic effect,1.98 µM
Cc1c(C(C)(C)C)s/c(=N\S(=O)(=O)c2cccc([N+](=O)[O-])c2)n1C,IIIB,,cytopathic effect / MTT,0.085 µM
C1CNCCCN(CCC[N+]2(CCCN3CCCNCCCNCCC3)CCCNCCCNCCC2)CCCNC1,IIIB,,cytopathic effect,2.5 µM
O=S1(=O)N=C(Nc2ccc(F)cc2)C=C(Cc2ccccc2)N1,IIIB,,MTT,>255 µM
COc1ccc(S(=O)(=O)N(CC(C)C)C[C@@H](O)[C@H](Cc2ccccc2)NC(=O)O[C@H]2CO[C@@H]3O[C@H]4OCC[C@H]4[C@@H]32)cc1,NL4-3,L10F V32I M46I I54M A71V I84V,p24 / luminescence,>1 µM

Repeating the final 4 entries:

compound | strain | mutations | read by | value
Cc1c(C(C)(C)C)s/c(=N\S(=O)(=O)c2cccc([N+](=O)[O-])c2)n1C | IIIB |  | cytopathic effect / MTT | 0.085 µM
C1CNCCCN(CCC[N+]2(CCCN3CCCNCCCNCCC3)CCCNCCCNCCC2)CCCNC1 | IIIB |  | cytopathic effect | 2.5 µM
O=S1(=O)N=C(Nc2ccc(F)cc2)C=C(Cc2ccccc2)N1 | IIIB |  | MTT | >255 µM
COc1ccc(S(=O)(=O)N(CC(C)C)C[C@@H](O)[C@H](Cc2ccccc2)NC(=O)O[C@H]2CO[C@@H]3O[C@H]4OCC[C@H]4[C@@H]32)cc1 | NL4-3 | L10F V32I M46I I54M A71V I84V | p24 / luminescence | >1 µM